Measured values from several laboratories, pooled; numbers as filed in NIAID ChemDB.

Common to all: whole-cell or culture tests; agent: Staphylococcus aureus

Zone: diameter of growth inhibition. Neighbouring rows are from separate reports. A number after MIC or MFC names an inhibition level or a share of isolates. ECn is the concentration giving n% inhibition of infection, replication or growth. Two numbers with a dash give a range or band. Blank or dashed fields: not listed here.

SMILES | endpoint | read by | tested at | strain | value
CC(=O)NC[C@H]1CN(c2ccc(N3CCN(C(=O)CO)CC3)c(F)c2)C(=O)O1 | MIC90 |  |  | Oxacillin-resistant | 1–4 µg/mL
CN[C@@H]1[C@H](O[C@H]2[C@H](O[C@H]3[C@H](O)[C@@H](O)[C@H](N=C(N)N)[C@@H](O)[C@@H]3N=C(N)N)O[C@@H](C)[C@]2(O)C=O)O[C@@H](CO)[C@H](O)[C@H]1O | zone | agar diffusion | 250 µg/disc |  | 14 mm
CCCCNC(=O)c1ccc(F)cc1SSc1cc(F)ccc1C(=O)NCCCC | MIC |  |  | ATCC 6538 | 15 µg/mL
C[C@@H]1CN(c2c(F)c(N)c3c(=O)c(C(=O)O)cn(C4CC4)c3c2F)C[C@H](C)N1 | MIC90 |  |  | 25 strains (methicillin-susceptible) | 0.25 µg/mL
N[C@@H](C(=O)N[C@@H]1C(=O)N2C(C(=O)O)=C(Cl)CS[C@H]12)c1ccccc1 | MIC90 |  |  | 30 strains | 2 µg/mL
CN(C)[C@@H]1C(=O)C(C(N)=O)=C(O)[C@@]2(O)C(=O)C3=C(O)c4c(O)c(NC(=O)CNc5ccccc5)cc(F)c4C[C@H]3C[C@@H]12 | EC50 | agar diffusion |  | 101-29213 | 2 µg/mL
C[C@H]1C[C@H](N)CN1c1cc2c(cc1F)c(=O)c(C(=O)O)cn2-c1ccc(F)cc1F | MIC |  |  | NCTC10649 | 0.03 µg/mL
CN1CCN(c2c(F)cc3c(=O)c(C(=O)O)cn4c3c2SCC4CF)CC1 | MIC90 |  |  | 30 strains | 1 µg/mL
CC[C@H](N)C1CCN(c2c(F)cn3c(=O)c(C(=O)O)cc(C4CC4)c3c2C)C1 | MIC |  |  | 1775 (ciprofloxacin-resistant) | 0.05 µg/mL
CC(=O)NC[C@H]1CN(c2ccc(N3CCOCC3)c(F)c2)C(=O)O1 | MIC50 |  |  | 25 strains (methicillin-susceptible) | 2 µg/mL
CO/N=C(/C(=O)N[C@@H]1C(=O)N2C(C(=O)O)=C(COC(N)=O)CS[C@H]12)c1ccco1 | MIC50 |  |  | 30 strains | 1 µg/mL
O=c1[nH]sc2ccc(C(F)(F)F)cc12 | MIC |  |  | ATCC 6538 | 15 µg/mL
CSCC[C@H](N)C1CCN(c2c(F)cn3c(=O)c(C(=O)O)cc(C4CC4)c3c2C)C1 | MIC |  |  | 1775 (ciprofloxacin-resistant) | 0.1 µg/mL
NC1CCN(c2c(F)cc3c(=O)c(C(=O)O)cn(C4CC4)c3c2Cl)C1 | MIC50 |  |  | 10 strains (oxacillin-resistant) | 0.25 µg/mL
C[C@@H](O)[C@H]1C(=O)N2C(C(=O)O)=C(SCCN=CN)C[C@H]12 | MIC50 |  |  | 24 strains (ofloxacin-susceptible) | 4 µg/mL
NC(=O)c1c(F)cccc1SSc1cccc(F)c1C(N)=O | MIC |  |  | ATCC 6538 | 50 µg/mL
Cc1onc(-c2ccccc2)c1C(=O)N[C@@H]1C(=O)N2[C@@H]1SC(C)(C)[C@@H]2C(=O)O | MIC50 |  |  | 25 strains (methicillin-susceptible) | 0.5 µg/mL
CCCCNC(=O)c1cc(C(F)(F)F)ccc1SSc1ccc(C(F)(F)F)cc1C(=O)NCCCC | MIC |  |  | ATCC 6538 | 40 µg/mL
CCCN1CCN(c2cc(=O)c3nc4c(oc3c2)c2c(=O)c3c(O)c(C)c5c(c34)=C(O)[C@@](C)(O/C=C/[C@H](OC)[C@@H](C)[C@@H](OC(C)=O)[C@H](C)[C@H](O)[C@H](C)[C@@H](O)[C@@H](C)/C=C/C=C(/C)C(=O)N2)O5)CC1 | MIC |  |  | ATCC 25923 | 0.0078 µg/mL
Cc1c(N2CC[C@H](NC3CC3)C2)c(F)cn2c(=O)c(C(=O)O)cc(C3CC3)c12 | MIC |  |  | 1775 (ciprofloxacin-resistant) | 3.1 µg/mL
CO[C@H]1/C=C/O[C@@]2(C)Oc3c(C)c(O)c4c(O)c(c(/C=N/N5CCN(C)CC5)c(O)c4c3C2=O)NC(=O)/C(C)=C\C=C\[C@H](C)[C@H](O)[C@@H](C)[C@@H](O)[C@@H](C)[C@H](OC(C)=O)[C@@H]1C | MIC50 |  |  | 16 strains (methicillin- quinolone-resistant) | 0.0078 µg/mL
NC1CCN(c2nc3c(cc2F)c(=O)c(C(=O)O)cn3-c2ccc(F)cc2F)C1 | MIC90 |  |  | 24 strains (ofloxacin-susceptible) | 0.06 µg/mL

3 of the rows above, restated:

{"SMILES": "CO[C@H]1/C=C/O[C@@]2(C)Oc3c(C)c(O)c4c(O)c(c(/C=N/N5CCN(C)CC5)c(O)c4c3C2=O)NC(=O)/C(C)=C\\C=C\\[C@H](C)[C@H](O)[C@@H](C)[C@@H](O)[C@@H](C)[C@H](OC(C)=O)[C@@H]1C", "endpoint": "MIC50", "strain": "16 strains (methicillin- quinolone-resistant)", "value": "0.0078 µg/mL"}
{"SMILES": "CC[C@H](N)C1CCN(c2c(F)cn3c(=O)c(C(=O)O)cc(C4CC4)c3c2C)C1", "endpoint": "MIC", "strain": "1775 (ciprofloxacin-resistant)", "value": "0.05 µg/mL"}
{"SMILES": "CCCN1CCN(c2cc(=O)c3nc4c(oc3c2)c2c(=O)c3c(O)c(C)c5c(c34)=C(O)[C@@](C)(O/C=C/[C@H](OC)[C@@H](C)[C@@H](OC(C)=O)[C@H](C)[C@H](O)[C@H](C)[C@@H](O)[C@@H](C)/C=C/C=C(/C)C(=O)N2)O5)CC1", "endpoint": "MIC", "strain": "ATCC 25923", "value": "0.0078 µg/mL"}